Experimental data from paper PMC4281115.
Construct, isoform or probe ends are uncertain for at least one entry. At least one verdict rests on a figure or table, not on a statement of the authors.

Amino acid sequences for entries named in this document (tags omitted). Residues count along the entry.
UniProt Q9WMX2, 1027-1657: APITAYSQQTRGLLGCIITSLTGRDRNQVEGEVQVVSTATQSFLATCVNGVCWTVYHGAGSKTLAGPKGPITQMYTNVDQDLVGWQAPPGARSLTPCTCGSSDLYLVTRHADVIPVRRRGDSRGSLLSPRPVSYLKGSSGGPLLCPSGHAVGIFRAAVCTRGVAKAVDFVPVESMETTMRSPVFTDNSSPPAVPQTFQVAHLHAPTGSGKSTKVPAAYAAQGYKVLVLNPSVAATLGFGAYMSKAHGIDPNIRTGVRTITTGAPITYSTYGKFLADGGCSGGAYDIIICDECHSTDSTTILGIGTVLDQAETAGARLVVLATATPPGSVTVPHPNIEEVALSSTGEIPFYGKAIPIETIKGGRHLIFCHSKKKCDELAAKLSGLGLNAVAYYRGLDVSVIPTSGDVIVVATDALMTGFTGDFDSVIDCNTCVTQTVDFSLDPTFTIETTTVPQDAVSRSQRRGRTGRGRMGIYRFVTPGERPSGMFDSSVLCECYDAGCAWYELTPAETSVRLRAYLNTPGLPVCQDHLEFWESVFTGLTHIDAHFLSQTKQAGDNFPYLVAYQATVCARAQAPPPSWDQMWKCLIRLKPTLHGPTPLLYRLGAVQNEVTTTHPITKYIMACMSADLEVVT
UniProt Q9WMX2, 1193-1657: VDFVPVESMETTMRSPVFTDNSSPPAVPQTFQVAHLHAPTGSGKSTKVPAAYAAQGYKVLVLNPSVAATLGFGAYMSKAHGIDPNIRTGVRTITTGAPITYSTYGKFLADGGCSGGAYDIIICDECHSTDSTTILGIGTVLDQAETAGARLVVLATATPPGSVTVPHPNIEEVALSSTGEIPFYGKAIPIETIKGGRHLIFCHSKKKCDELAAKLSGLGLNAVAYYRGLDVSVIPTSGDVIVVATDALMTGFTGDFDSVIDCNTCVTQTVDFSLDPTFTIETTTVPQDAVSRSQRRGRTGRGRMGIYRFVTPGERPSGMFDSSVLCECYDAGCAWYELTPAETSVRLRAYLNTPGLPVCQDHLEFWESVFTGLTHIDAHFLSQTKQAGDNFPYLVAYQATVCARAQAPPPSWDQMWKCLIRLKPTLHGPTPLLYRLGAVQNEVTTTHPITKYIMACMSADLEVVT

Key:
NS3FL (full-length NS3) = NS3FL (full-length NS3) (UniProt Q9WMX2); assay: Trp fluorescence quenching; settings: 25 mM MOPS-NaOH pH 6.4 or 7.2, 2 mM MgCl2, 25 C, 25 nM 5-FAM-dT20 with 0-10 uM NS3hel or 0-5 uM NS3FL, 10 min (anisotropy), 1 uM protein with 0-1 uM ssDNA, recombinant protein, protein details: C-terminal 6xHis, single-stranded DNA
[1] = molecular target: NS3hel (NS3 helicase domain) (UniProt Q9WMX2); assay: Trp fluorescence quenching; settings: pH 6.4, 2 mM MgCl2, quenching greater than at pH 7.2; 25 mM MOPS-NaOH pH 6.4 or 7.2, 2 mM MgCl2, 25 C; 25 nM 5-FAM-dT20 with 0-10 uM NS3hel or 0-5 uM NS3FL, 10 min (anisotropy); 1 uM protein with 0-1 uM ssDNA; recombinant protein; protein details: N-terminal 6xHis-TEV, cleaved; single-stranded DNA

Measured: binding result

TTTTTTTTTTTTTTTTTTTT [oligo(dT)20 unlabeled]
binds: NS3FL (full-length NS3); pH 6.4, 2 mM MgCl2, less quenching than NS3hel, no pH difference | NS3FL (full-length NS3); pH 7.2, 2 mM MgCl2, no significant difference from pH 6.4 | [1]
